A mixed list of measured activities; the numbers were collected in NIAID ChemDB.

Shared fields: whole-cell or culture tests; agent: HIV-1; read-out: EC50

Blank or dashed fields: not listed here.

SMILES,strain or isolate,mutations,cell line,read by,value
CC1(C)C(c2ccc(C(=O)O)cc2)=CC[C@]2(C)CN(C(=O)c3cccc(C(=O)C4CC=C5C(C)(C)C(c6ccc(C(=O)O)cc6)=CC[C@]5(O)C4)c3)CC=C12,NL4-3,Renilla luciferase reporter Gag P373S,MT-2,luciferase / luminescence,<0.5 µM
CCCCCCCCCCCCCCC(=O)Oc1ccc(OP(=O)(OCc2ccc(OC(=O)CC(C)C)cc2)OP(=O)(O)OP(=O)(O)OC[C@@H]2C=C[C@H](n3cc(C)c(=O)[nH]c3=O)O2)cc1,IIIB,,CEM/TK-,syncytia / visual reading,0.39 µM
COc1ccc(OS(=O)(=O)c2c(O)c(-c3cc(C)on3)c(OC)c3ccoc23)cc1,RF,,CEM-SS,cytopathic effect / MTS,0.000049 µM
O=c1[nH]c(=S)ccn1[C@@H]1O[C@H](COP(=O)(O)O)[C@@H](O)[C@H]1O,IIIB,,MAGI,β-galactosidase / visual reading,4.7 µM
COC[C@@H](c1ccc(C(F)(F)F)cc1)N1CCN(C2(C)CCN(C(=O)c3c(C)ncnc3C)CC2)C[C@@H]1C,R14/S,,TZM-bl,,0.0096 µM
CC1(C)C(c2ccc(C(=O)O)cc2)=CC[C@]2(C)CN(C(=O)C3(Cc4ccccc4)CCNCC3)CC=C12,NL4-3,Renilla luciferase reporter Gag P373S,MT-2,luciferase / luminescence,0.61 µM
COc1c(C(=O)/C=C(/C)Nc2ccc([N+](=O)[O-])cc2)c(O)c(S(=O)(=O)Oc2ccc(F)cc2)c2occc12,RF,,CEM-SS,cytopathic effect / MTS,0.000062 µM
CCCCCCCCCCCCCCCC(=O)Oc1ccc(OP(=O)(OCc2ccc(OC(=O)CCCC)cc2)OP(=O)(O)OP(=O)(O)OC[C@@H]2C=C[C@H](n3cc(C)c(=O)[nH]c3=O)O2)cc1,IIIB,,CEM/TK-,syncytia / visual reading,1.1 µM
CCCC[C@@H](CCC(=O)O)NC(=O)c1ccccc1SSc1ccccc1C(=O)N[C@@H](CCCC)CCC(=O)O,IIIB,,CEM,cytopathic effect / XTT,4.1 µM
COc1c(-c2cc(C)n(-c3ccccc3)n2)c(O)c(S(=O)(=O)OC2CCCCC2)c2occc12,RF,,CEM-SS,cytopathic effect / MTS,0.000044 µM
Cc1cc(C#N)cc(C(=O)c2cc(Cl)ccc2OCC(=O)Nc2cnc(S(N)(=O)=O)cc2C)c1,HXB2,RT-K103N,HeLa + HELA CD4+,β-galactosidase,<0.01 µM
CN(C(=O)N[C@@H](Cc1ccccc1)C(=O)N1CCC(=O)C1)c1ccccc1,,,MT-4,syncytia / trypan blue,>50 µM
CCN(CC)CCNc1ccnc(NCCCNC(=O)CCC(=O)NCCCNc2nccc(NCCN(CC)CC)n2)n1,IIIB,,H9,syncytia / ELISA,0.5 µM
Cc1cc(S(N)(=O)=O)ccc1NC(=O)COc1ccc(Cl)cc1C(=O)c1cc(Cl)cc(C#N)c1,Nevirapine-resistant (RT Y181C),RT-Y181C,MT-4,cytopathic effect / propidium iodide,<0.01 µM
COC(=O)[C@@H](NP(=O)(OC[C@@H]1C=C[C@H](n2cc(C)c(=O)[nH]c2=O)O1)Oc1ccccc1)C(C)C,,,CEM + CEM/0,cytopathic effect / microscopy,13 µM
CC(C)CCNc1ccnc(NCCCNC(=O)c2ccc(C(=O)NCCCNc3nccc(NCCC(C)C)n3)cc2)n1,IIIB,,H9,syncytia / ELISA,>6.3 µM
CCCCCCCCCCCCCCC(=O)Oc1ccc(COP(=O)(Oc2ccc(OC(=O)CCC(=O)OCCOCCOCCOC)cc2)OP(=O)(O)OP(=O)(O)OC[C@@H]2C=C[C@H](n3cc(C)c(=O)[nH]c3=O)O2)cc1,IIIB,,CEM/TK-,syncytia / visual reading,1.3 µM
Cc1cc(S(N)(=O)=O)ccc1NC(=O)COc1ccc(Cl)cc1C(=O)c1cc(F)cc(C(F)(F)F)c1,HXB2,RT-E138K,HeLa + HELA CD4+,β-galactosidase,<0.01 µM
CCN1C(=O)NC(=O)C(C(C)C)C1CC1CC(C)CC(C#N)C1=O,IIIB,,C8166,p24 / ELISA,0.00303 µM
CCCCCCCCOC(=O)N[C@@H](Cc1ccccc1)C(=O)N1CCC(=O)C1,,,MT-4,syncytia / trypan blue,>50 µM
O=C(N[C@@H](CO)C(=O)O)c1ccccc1SSc1ccccc1C(=O)N[C@@H](CO)C(=O)O,IIIB,,CEM,cytopathic effect / XTT,>100 µM
CC(C)C1=C2[C@H]3CC[C@@H]4[C@@]5(C)CC[C@H](OC(=O)[C@H]6C[C@@H](C(=O)O)C6(C)C)C(C)(C)[C@@H]5CC[C@@]4(C)[C@]3(C)CC[C@@]2([C@@H](O)CNC(=O)C2(N)CCCCC2)CC1=O,92HT599,,MT-2,p24 / ELISA,<1 µM
COc1c2ccoc2c(S(=O)(=O)OC2CCCC2)c2oc(C)cc(=O)c12,RF,,CEM-SS,cytopathic effect / MTS,0.000087 µM
Cc1cc(OCCCN2CCOCC2)ccc1NC(=O)COc1ccc(Cl)cc1C(=O)c1cccs1,HXB2 (RT-K103N Y181C) Recombinant,RT-K103N Y181C,HeLa + HELA CD4+,β-galactosidase,0.101–1 µM
CCN(CC)CCNc1ccnc(NCCCNC(=O)CC(=O)NCCNc2nccc(NCCN(CC)CC)n2)n1,IIIB,,H9,syncytia / ELISA,2 µM
CC(C)C[C@H](NC(=O)c1ccccc1SSc1ccccc1C(=O)N[C@@H](CC(C)C)C(=O)O)C(=O)O,IIIB,,CEM,cytopathic effect / XTT,8.9 µM
CC(C)(C)OC(=O)NCC(=O)N1CCC(O)C1,,,MT-4,syncytia / trypan blue,>100 µM
CC(C)[C@@H](/C=C/CO)NC(=O)c1ccccc1SSc1ccccc1C(=O)N[C@H](/C=C/CO)C(C)C,IIIB,,CEM,cytopathic effect / XTT,>9 µM
CC(C)C1=C2[C@H]3CC[C@@H]4[C@@]5(C)CC[C@H](OC(=O)[C@H]6C[C@@H](C(=O)O)C6(C)C)C(C)(C)[C@@H]5CC[C@@]4(C)[C@]3(C)CC[C@@]2([C@@H](O)CN(CCN(C)C)C(=O)c2nccs2)CC1=O,92HT599,,MT-2,p24 / ELISA,<1 µM
Cc1cc(S(N)(=O)=O)ccc1NC(=O)COc1ccc(Cl)cc1C(=O)c1cccc(C#N)n1,HXB2,RT-K103N,HeLa + HELA CD4+,β-galactosidase,<0.01 µM
CC(C)C1=C2[C@H]3CC[C@@H]4[C@@]5(C)CC[C@H](OC(=O)[C@H]6C[C@@H](C(=O)O)C6(C)C)C(C)(C)[C@@H]5CC[C@@]4(C)[C@]3(C)CC[C@@]2(CCNCC2CC2)CC1=O,92HT599,,MT-2,p24 / ELISA,<1 µM
COc1c(-c2cc(C)n(-c3ccccc3)n2)c(O)c(S(=O)(=O)Oc2ccc([N+](=O)[O-])cc2)c2occc12,RF,,CEM-SS,cytopathic effect / MTS,0.000029 µM
N=C1Sc2ccccc2C2=NCCCN12,92UG029,,PBMC,MTS,1.18 µM
CC(C)C1=C2[C@H]3CC[C@@H]4[C@@]5(C)CC[C@H](OC(=O)[C@H]6C[C@@H](C(=O)O)C6(C)C)C(C)(C)[C@@H]5CC[C@@]4(C)[C@]3(C)CC[C@@]2(CC(=O)NC2(CNC(=O)c3ccc(Cl)cc3)CCCCC2)CC1=O,92HT599,,MT-2,p24 / ELISA,<1 µM
COc1cccc2oc(-c3ccccc3C(=O)N3CC=C4C(C)(C)C(c5ccc(C(=O)O)cc5)=CC[C@]4(C)C3)nc12,NL4-3,Renilla luciferase reporter Gag P373S,MT-2,luciferase / luminescence,0.5–3 µM
CCC(=O)c1ccc(F)c([C@@H]2C[C@@H]2NC(=O)Nc2ccc(C#N)cn2)c1O,LAI,NNRTI-resistant (RT V179F),TZM-bl,β-galactosidase / luminescence,0.00003 µM
Cc1cc(S(N)(=O)=O)ccc1NC(=O)COc1ccc(Cl)cc1C(=O)c1cccc(C#N)c1,HXB2,RT-K103N P225H,HeLa + HELA CD4+,β-galactosidase,<0.01 µM
COc1c(-c2cc(C)on2)c(O)c(S(=O)(=O)Oc2ccc([N+](=O)[O-])cc2)c2occc12,RF,,CEM-SS,cytopathic effect / MTS,0.000052 µM
CCCCCCCCCCCCCCC(=O)Oc1ccc(OP(=O)(OCc2ccc(OC(=O)CC)cc2)OP(=O)(O)OP(=O)(O)OC[C@@H]2C=C[C@H](n3cc(C)c(=O)[nH]c3=O)O2)cc1,IIIB,,CEM/TK-,syncytia / visual reading,1.1 µM
CCCc1cc(=O)oc2c3c(c4c(c12)OC(C)(C)CC4)O[C@H](C)[C@@H](C)[C@@H]3O,RF,,CEM + CEM-SS,cytopathic effect / XTT,0.27 µM
CC(C)(C)OC(=O)NC(Cc1ccc(OCc2ccccc2)cc1)C(=O)N1CCC(=O)C1,,,MT-4,syncytia / trypan blue,10 µM
CC(C)C1=C2[C@H]3CC[C@@H]4[C@@]5(C)CC[C@H](OC(=O)[C@H]6C[C@@H](C(=O)O)C6(C)C)C(C)(C)[C@@H]5CC[C@@]4(C)[C@]3(C)CC[C@@]2([C@@H](O)CNCC(CCCN)NC(=O)c2ccc(Cl)cc2)CC1=O,92HT599,,MT-2,p24 / ELISA,<1 µM
CCN(CC)CCNc1ccnc(NCCCNC(=O)c2ccc(C(=O)NCCCNc3nccc(NCCN(CC)CC)n3)cc2)n1,IIIB,,H9,syncytia / ELISA,0.25 µM
CC(C)C1=C2[C@H]3CC[C@@H]4[C@@]5(C)CC[C@H](OC(=O)[C@H]6C[C@@H](C(=O)O)C6(C)C)C(C)(C)[C@@H]5CC[C@@]4(C)[C@]3(C)CC[C@@]2(CCNC(=O)C2CC2)CC1=O,92HT599,,MT-2,p24 / ELISA,<1 µM
CC(CC(=O)O)NC(=O)c1ccccc1SSc1ccccc1C(=O)NC(C)CC(=O)O,IIIB,,CEM,cytopathic effect / XTT,29.9 µM
Cc1cc(OCCCS(N)(=O)=O)ccc1NC(=O)COc1ccc(Cl)cc1C(=O)c1cc(F)cc(C(F)(F)F)c1,HXB2,RT-V108I,HeLa + HELA CD4+,β-galactosidase,<0.01 µM
CC(C)CCC[C@@H](C)[C@H]1CCC2C3CCC4C[C@@H](OCc5cn([C@@H]6O[C@H](COS(=O)(=O)[O-])[C@@H](O[C@H]7O[C@H](COS(=O)(=O)[O-])[C@@H](O[C@H]8O[C@H](COS(=O)(=O)[O-])[C@@H](OS(=O)(=O)[O-])[C@H](OS(=O)(=O)[O-])[C@H]8OS(=O)(=O)[O-])[C@H](OS(=O)(=O)[O-])[C@H]7OS(=O)(=O)[O-])[C@H](OS(=O)(=O)[O-])[C@H]6OS(=O)(=O)[O-])nn5)CC[C@]4(C)C3CC[C@@]21C,IIIB,,H9,p24 / ELISA / antigen,7 µg/mL

A second listing of 7 rows from above:

{"SMILES": "CC1(C)C(c2ccc(C(=O)O)cc2)=CC[C@]2(C)CN(C(=O)c3cccc(C(=O)C4CC=C5C(C)(C)C(c6ccc(C(=O)O)cc6)=CC[C@]5(O)C4)c3)CC=C12", "strain or isolate": "NL4-3", "mutations": "Renilla luciferase reporter Gag P373S", "cell line": "MT-2", "read by": "luciferase / luminescence", "value": "<0.5 µM"}
{"SMILES": "Cc1cc(S(N)(=O)=O)ccc1NC(=O)COc1ccc(Cl)cc1C(=O)c1cccc(C#N)n1", "strain or isolate": "HXB2", "mutations": "RT-K103N", "cell line": "HeLa + HELA CD4+", "read by": "β-galactosidase", "value": "<0.01 µM"}
{"SMILES": "Cc1cc(S(N)(=O)=O)ccc1NC(=O)COc1ccc(Cl)cc1C(=O)c1cc(F)cc(C(F)(F)F)c1", "strain or isolate": "HXB2", "mutations": "RT-E138K", "cell line": "HeLa + HELA CD4+", "read by": "β-galactosidase", "value": "<0.01 µM"}
{"SMILES": "CC(C)C1=C2[C@H]3CC[C@@H]4[C@@]5(C)CC[C@H](OC(=O)[C@H]6C[C@@H](C(=O)O)C6(C)C)C(C)(C)[C@@H]5CC[C@@]4(C)[C@]3(C)CC[C@@]2(CCNCC2CC2)CC1=O", "strain or isolate": "92HT599", "cell line": "MT-2", "read by": "p24 / ELISA", "value": "<1 µM"}
{"SMILES": "CCCc1cc(=O)oc2c3c(c4c(c12)OC(C)(C)CC4)O[C@H](C)[C@@H](C)[C@@H]3O", "strain or isolate": "RF", "cell line": "CEM + CEM-SS", "read by": "cytopathic effect / XTT", "value": "0.27 µM"}
{"SMILES": "CN(C(=O)N[C@@H](Cc1ccccc1)C(=O)N1CCC(=O)C1)c1ccccc1", "cell line": "MT-4", "read by": "syncytia / trypan blue", "value": ">50 µM"}
{"SMILES": "Cc1cc(S(N)(=O)=O)ccc1NC(=O)COc1ccc(Cl)cc1C(=O)c1cc(Cl)cc(C#N)c1", "strain or isolate": "Nevirapine-resistant (RT Y181C)", "mutations": "RT-Y181C", "cell line": "MT-4", "read by": "cytopathic effect / propidium iodide", "value": "<0.01 µM"}

ECn is the concentration giving n% inhibition of infection, replication or growth. Lines come from different laboratories, so protocols vary. a–b is a range or a potency band.